Reference: PubChem BioAssay AID504761 (Drosophila RNAi Screening Center, 2011)

- Aim: 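Insect host genes that dengue virus relies on to spread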 (primary screen)
- Cell system: D.Mel-2 cells from Drosophila
- Knock-down reagent: long dsRNA against Drosophila genes
- Treatment: infection with dengue virus type 2; dose and infection time not stated
- Detection: 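Cells stained for dengue envelope protein and imaged; percent of infected cells per well on duplicate plates, ranked by infection, with stained nuclei counted for cell number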
- Reading the numbers: infection score: higher = more virus-infected cells; cell count: higher = more cells in the well
- Call rule: 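Low infection ranks in the two replicates (chance level up to 0.065) followed by a retest with a 1.5-fold or larger significant decrease, p below 0.05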
- Calls: active = confirmed: knock-down lowers infection; inactive = not picked or not confirmed
In all, the deposit lists about 22,000 reagents; shown is a random part of those with a known target gene and a result. Over the whole deposit, 116 (0.52%) were called active. 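Calls depend on retest data that are not deposited; infection was ranked per plate without normalising between plates; the unit of the infection score is not given.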 Raw values are not corrected between plates. Entries without a mark were called inactive. Not given: the amount of reagent, the time to read-out.

gene knocked down,dsRNA,"infection score, replicate 1","infection score, replicate 2","cell count, replicate 1","cell count, replicate 2"
CG13308,DRSC09979,1.19,1.77,6069,6441
CG12299,DRSC02158,15.2,21,5684,5264
CG12299,DRSC23611,8.13,7.07,5858,5972
CG14770,DRSC17947,1.02,11.9,6395,4860
CG5708,DRSC02881,1.06,1.03,6978,6611
CG1273,DRSC08291,2.95,1.99,5557,5590
TpnC73F,DRSC11307,2.32,1.38,6554,6073
geminin,DRSC04984,6.46,3.68,1595,1931
geminin,DRSC29794,19.2,14.9,991,1077
MrgBP,DRSC06417,16.2,3.61,1272,1357
MrgBP,DRSC29948,19.1,11.9,6578,6741
CG12480,DRSC19460,20.1,13.2,5851,6198
CG12480,DRSC27987,29.8,20.5,6305,6035
CG17776,DRSC18136,5.85,1.64,6271,5810
CG17776,DRSC27477,14.2,22.8,2539,4580
Rfx,DRSC16820,9.34,21.6,6756,5514
Dscam1,DRSC07407,5.92,9.69,5579,6399
Dscam1,DRSC21562,1.95,4.44,6262,6733
Dscam1,DRSC22383,1.21,2.7,6223,6045
Dscam1,DRSC29101,6.3,21,5092,5690
CG13850,DRSC14700,2.85,1.49,6558,6638
Cyp6v1,DRSC20565,2.62,2.57,5695,5593
Cyp6v1,DRSC29247,,19.6,394,5966
Trxr2,DRSC11900,6.46,7.24,6623,6479
Trxr2,DRSC25519,1.79,9.35,6719,6633
Ir60b,DRSC04217,4.14,8.54,6479,6279
CG1146,DRSC08189,9.83,11.2,6490,6430
CG1146,DRSC25486,2.33,2.28,6263,6172
Start1,DRSC04384,19.6,20.2,6695,5924
Start1,DRSC28343,13.1,15.8,5818,5147
CG15005,DRSC08459,4.03,4.54,6283,5634
CG15005,DRSC26556,10.8,7.96,5232,5751
CG11590,DRSC19411,6.71,10.6,3948,5903
CG11590,DRSC28405,19.5,,3641,366
Dlish,DRSC06016,19.1,20.1,3704,6826
CG31249,DRSC16248,2.17,0.44,6207,6434
CG15254,DRSC01870,8.81,13,5268,6602
CG15254,DRSC21765,5.45,5.52,6638,6346
CG15254,DRSC29568,12.3,3.01,5499,997

3 entries already listed, arranged by “infection score, replicate 2”, highest first:
gene knocked down,dsRNA,"infection score, replicate 1","infection score, replicate 2","cell count, replicate 1","cell count, replicate 2"
CG17776,DRSC27477,14.2,22.8,2539,4580
CG12480,DRSC27987,29.8,20.5,6305,6035
CG17776,DRSC18136,5.85,1.64,6271,5810
